Measurements as given in PMC8001506 (Marine Drugs, 2021).

By UniProt entry, the sequences of proteins in these tests, tags left out. Where a name states a change or a piece, a line headed by the entry shows the natural chain unless it says otherwise. Residues count along the entry.
UniProt P04757, whole entry, looked up: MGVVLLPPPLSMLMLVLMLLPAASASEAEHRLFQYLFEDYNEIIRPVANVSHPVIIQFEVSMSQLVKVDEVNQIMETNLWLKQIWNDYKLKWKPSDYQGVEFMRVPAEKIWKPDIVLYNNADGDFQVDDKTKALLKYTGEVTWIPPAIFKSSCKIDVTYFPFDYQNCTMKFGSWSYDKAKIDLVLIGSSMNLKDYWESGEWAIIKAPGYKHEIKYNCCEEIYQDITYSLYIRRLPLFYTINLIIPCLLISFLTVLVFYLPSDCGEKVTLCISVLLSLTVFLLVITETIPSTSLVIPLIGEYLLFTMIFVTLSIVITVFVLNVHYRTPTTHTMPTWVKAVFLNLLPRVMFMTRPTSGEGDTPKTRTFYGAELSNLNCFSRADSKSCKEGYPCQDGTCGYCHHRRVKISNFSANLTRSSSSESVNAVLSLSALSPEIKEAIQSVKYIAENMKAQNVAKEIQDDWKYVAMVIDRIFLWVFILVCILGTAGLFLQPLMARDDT
UniProt P04757, 26-499 limits assumed: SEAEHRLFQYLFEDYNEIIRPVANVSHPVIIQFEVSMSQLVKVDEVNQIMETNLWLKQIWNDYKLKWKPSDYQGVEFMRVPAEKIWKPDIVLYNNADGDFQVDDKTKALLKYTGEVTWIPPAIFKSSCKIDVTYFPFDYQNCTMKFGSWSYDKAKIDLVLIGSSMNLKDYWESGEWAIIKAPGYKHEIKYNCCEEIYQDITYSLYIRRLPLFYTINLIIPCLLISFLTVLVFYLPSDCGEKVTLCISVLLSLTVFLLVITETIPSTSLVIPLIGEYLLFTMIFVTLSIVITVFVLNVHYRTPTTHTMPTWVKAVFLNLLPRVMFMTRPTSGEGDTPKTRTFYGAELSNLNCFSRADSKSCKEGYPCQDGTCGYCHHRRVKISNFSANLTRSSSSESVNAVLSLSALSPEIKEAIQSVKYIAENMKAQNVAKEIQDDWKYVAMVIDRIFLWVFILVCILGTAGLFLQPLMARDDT
UniProt P12390, whole entry, looked up: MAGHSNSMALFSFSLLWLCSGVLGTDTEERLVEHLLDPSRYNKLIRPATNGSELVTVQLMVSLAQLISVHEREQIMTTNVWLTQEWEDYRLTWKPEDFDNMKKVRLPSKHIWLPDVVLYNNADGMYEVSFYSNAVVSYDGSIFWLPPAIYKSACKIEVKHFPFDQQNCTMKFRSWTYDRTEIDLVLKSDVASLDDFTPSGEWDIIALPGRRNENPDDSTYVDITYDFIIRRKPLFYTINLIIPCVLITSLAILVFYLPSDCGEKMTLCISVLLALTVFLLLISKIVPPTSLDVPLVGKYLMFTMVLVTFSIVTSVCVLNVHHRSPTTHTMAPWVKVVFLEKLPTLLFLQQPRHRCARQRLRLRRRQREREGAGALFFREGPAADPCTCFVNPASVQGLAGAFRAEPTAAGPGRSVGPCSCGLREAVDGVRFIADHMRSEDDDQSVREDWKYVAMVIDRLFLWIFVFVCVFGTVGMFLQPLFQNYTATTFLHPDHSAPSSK
UniProt P12390, 25-500 limits assumed: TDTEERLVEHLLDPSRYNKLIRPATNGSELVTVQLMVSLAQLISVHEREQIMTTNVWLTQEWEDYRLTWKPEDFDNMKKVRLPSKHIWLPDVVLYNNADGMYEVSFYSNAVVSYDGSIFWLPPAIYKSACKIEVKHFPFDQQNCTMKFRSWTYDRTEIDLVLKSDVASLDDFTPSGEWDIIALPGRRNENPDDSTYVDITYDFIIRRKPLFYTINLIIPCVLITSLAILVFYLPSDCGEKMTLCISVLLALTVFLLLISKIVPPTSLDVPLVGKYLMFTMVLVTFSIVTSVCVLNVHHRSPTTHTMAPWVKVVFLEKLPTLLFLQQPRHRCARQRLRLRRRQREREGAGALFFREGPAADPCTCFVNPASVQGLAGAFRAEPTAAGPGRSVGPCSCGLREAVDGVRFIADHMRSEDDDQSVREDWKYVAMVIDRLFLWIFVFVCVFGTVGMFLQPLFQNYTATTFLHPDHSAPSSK
UniProt P12391: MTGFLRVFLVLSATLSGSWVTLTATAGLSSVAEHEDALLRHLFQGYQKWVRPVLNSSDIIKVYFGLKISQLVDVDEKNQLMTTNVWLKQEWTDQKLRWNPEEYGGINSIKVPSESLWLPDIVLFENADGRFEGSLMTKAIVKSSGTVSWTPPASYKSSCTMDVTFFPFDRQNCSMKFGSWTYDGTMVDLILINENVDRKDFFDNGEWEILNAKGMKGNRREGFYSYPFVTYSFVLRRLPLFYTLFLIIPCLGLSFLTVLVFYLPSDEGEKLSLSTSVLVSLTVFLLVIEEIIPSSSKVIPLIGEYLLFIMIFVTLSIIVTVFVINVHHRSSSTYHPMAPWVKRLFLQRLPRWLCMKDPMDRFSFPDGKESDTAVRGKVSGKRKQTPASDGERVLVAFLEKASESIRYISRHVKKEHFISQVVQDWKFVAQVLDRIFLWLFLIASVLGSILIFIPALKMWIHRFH
UniProt P43143, whole entry, looked up: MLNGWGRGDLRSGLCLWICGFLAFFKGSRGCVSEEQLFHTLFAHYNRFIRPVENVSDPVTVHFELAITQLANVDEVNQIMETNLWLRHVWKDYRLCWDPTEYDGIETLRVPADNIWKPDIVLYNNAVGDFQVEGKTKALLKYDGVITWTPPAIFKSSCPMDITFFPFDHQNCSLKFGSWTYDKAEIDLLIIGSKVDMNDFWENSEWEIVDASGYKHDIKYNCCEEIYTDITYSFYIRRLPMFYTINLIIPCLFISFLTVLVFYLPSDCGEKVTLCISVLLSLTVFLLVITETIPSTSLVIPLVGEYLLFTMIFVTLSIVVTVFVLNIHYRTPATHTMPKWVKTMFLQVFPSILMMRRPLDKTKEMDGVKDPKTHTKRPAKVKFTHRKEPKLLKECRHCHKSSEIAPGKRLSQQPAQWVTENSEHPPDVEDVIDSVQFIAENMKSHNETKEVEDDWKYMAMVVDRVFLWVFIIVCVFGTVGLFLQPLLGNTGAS

Key:
rat α6/α3β2β3 nAChR = rat α6/α3β2β3 nAChR (Rattus norvegicus, UniProt P04757+P12390+P12391+P43143); conditions: for α6/α3β2β3 over the other nAChRs tested up to 10 µM
rat α3β2 nAChR = rat α3β2 nAChR (Rattus norvegicus, UniProt P04757+P12390)

## CC(C)C[C@@H]1NC(=O)[C@H](CC(=O)O)NC(=O)[C@H](CO)NC(=O)[C@H](Cc2c[nH]cn2)NC(=O)[C@H](CCC(N)=O)NC(=O)[C@H](C(C)C)NC(=O)[C@H](CCC(N)=O)NC(=O)[C@@H]2CSSC[C@H](N)C(=O)N[C@@H](CSSC[C@@H](C(=O)O)NC1=O)C(=O)N[C@@H](CO)C(=O)N[C@@H](CC(N)=O)C(=O)N1CCC[C@H]1C(=O)N[C@@H](C)C(=O)N2 [Δ-CIC]
Rat α6/α3β2β3 nAChR
  selectivity profile (in words): high selectivity profile
Rat α3β2 nAChR; for α3β2 over the other nAChRs tested up to 10 µM
  selectivity profile (in words): high selectivity profile
Rat α3β2 nAChR; α3β2, fold higher IC50 / less potent than MII (MII from literature)
  potency loss (IC50 ratio) versus α-conotoxin MII: 1000 fold
